Read-outs that look alike come from different tables or passages of the source.
Assay: Bio-assay

SMILES: N[C@@H](C(=O)N[C@@H]1C(=O)N2C(C(=O)O)=C(CSc3cnn[nH]3)CS[C@H]12)c1ccc(O)cc1 [7-[D-α-amino-α-(p-hydroxyphenyl)acetamido]-3-(1,2,3-triazol-] [7-[D-α-amino-α-(p-hydroxyphenyl)acetamido]-3-(1,2,3-triazol-5-ylthiomethyl)-3-cephem-4-carboxylic acid propylene glycol solvate]
- Bio-assay (bio potency, BL-S640 activity): 840 to 900 µg/mg

SMILES: O=C(O)C1=C(CSc2cnn[nH]2)CS[C@@H]2[C@H](N3C(=O)[C@@H](c4ccc(O)cc4)NC3c3ccc(S(=O)(=O)O)o3)C(=O)N12 (stereo partly drawn) [BL-S1027]
- Bio-assay (bio potency, BL-S640 activity): 724 µg/mg

SMILES: O=C(O)C1=C(CSc2cnn[nH]2)CS[C@@H]2[C@H](N3C(=O)[C@@H](c4ccc(O)cc4)NC3c3ccccc3S(=O)(=O)O)C(=O)N12 (stereo partly drawn) [BL-S1055]
- Bio-Assay: 700 mcg./mgm.

SMILES: N[C@@H](C(=O)N[C@@H]1C(=O)N2C(C(=O)O)=C(CSc3cnn[nH]3)CS[C@H]12)c1ccc(O)cc1 [Methanol Solvate, 7-[D-α-amino-α-(p-hydroxyphenyl)acetamido]-3-(1,2,3-triazol-5-ylthiomethyl)-3-cephem-4-carboxylic acid]
- Bio-assay (bio potency, BL-S640 activity): 850 to 900 µg/mg

SMILES: N[C@@H](C(=O)N[C@@H]1C(=O)N2C(C(=O)O)=C(CSc3cnn[nH]3)CS[C@H]12)c1ccc(O)cc1 [dihydrate, 7-[D-α-amino-α-(p-hydroxyphenyl)acetamido]-3-(1,2,3-triazol-5-ylthiomethyl)-3-cephem-4-carboxylic acid dihydrate]
- Bio-assay (bio potency, BL-S640 activity) (dihydrate): 950 to 1000 µg/mg

SMILES: N[C@@H](C(=O)N[C@@H]1C(=O)N2C(C(=O)O)=C(CSc3cnn[nH]3)CS[C@H]12)c1ccc(O)cc1 [sesquihydrate, 7-[D-α -amino-α-(p-hydroxyphenyl)acetamido]-3-(1,2,3-triazol-5-ylthiomethyl)-3-cephem-4-carboxylic acid sesquihydrate]
- Bio-assay (bio potency, BL-S640 activity) (sesquihydrate): 924 µg/mg

Source: patent US4026888A, “Certain derivatives of particular 3-thiolated cephalosporins” (priority 1976, dated 1977)
